Pooled drug test results. Numbers come from NIAID ChemDB, via PubChem.

Common to all: whole-cell or culture tests; organism: HIV-1

Two numbers with a dash give a range or band. Rows are shuffled and stem from different studies. An empty or dashed field is not shown. ECn is the concentration giving n% inhibition of infection, replication or growth.

structure	mutations	cell line	setting	measure	read by	strain	value
Cc1cn([C@@H]2C[C@@H](N=[N+]=[N-])[C@H](COP(=O)(O)OC[C@H]3O[C@@H](n4cc(C)c(=O)[nH]c4=O)C[C@@H]3N=[N+]=[N-])O2)c(=O)[nH]c1=O	-	PBMC	-	EC90	RT activity	LAV	0.048 µM
CCCCCCCCCCCCSCC(COP(=O)([O-])OCC[N+](C)(C)C)OCCCCCCCCC(=O)OCC(=O)OC[C@H]1O[C@@H](n2cc(C)c(=O)[nH]c2=O)C[C@@H]1N=[N+]=[N-]	-	CEM + CEM-SS	-	EC50	plaque count	RF2803 WT	0.01 µM
C#Cc1ccc(Nc2nccc(Oc3c(C)cc(-c4cn(CCC(=O)OC)nn4)cc3C)n2)cc1	E138K	MT-4	-	EC50	MTT	IIIB	1.03 µM
NS(=O)(=O)c1ccc(NC2=NS(=O)(=O)NC(Cc3ccccc3)=C2)cc1	-	MT-4	-	EC50	MTT	IIIB	>318 µM
CC(C)=CCc1c(-c2cc(O)c(O)cc2O)oc2c3c(cc(O)c2c1=O)OC(C)(C)C=C3	-	MT-4	-	EC50	cytopathic effect / MTT	IIIB	>20 µg/mL
CC(C)=CCN1Cc2cccc3[nH]c(=S)n(c23)C[C@@H]1C	-	MT-4	-	EC50	-	IIIB	<0.2 µM
COc1cc(O)ccc1C(=O)CC(=O)c1ccc(O)cc1	-	MT-4	-	EC50	cytopathic effect / MTT	IIIB	>20 µg/mL
C#Cc1ccc(Nc2nccc(Oc3c(C)cc(-c4cn(-c5cccc(C(=O)OC)c5)nn4)cc3C)n2)cc1	Y181C	MT-4	-	EC50	MTT	IIIB	0.46 µM
CCn1nc(Cc2ccc(C(C)C)cc2)cc1C1CCN(C[C@H]2CN([C@@H](C(=O)O)C(C)(C)C)C[C@@H]2c2cccc(F)c2)CC1	-	HeLa	50% human serum	EC50	β-galactosidase	BaL	<0.033 µM
O=c1[nH]cnc2c1ncn2[C@H]1CC[C@@H](CO)O1	-	PBMC	-	EC90	RT activity	LAV	3.7 µM
COc1c(CC=C(C)C)c(O)cc2c1C[C@H](c1ccc(O)cc1O)CO2	-	MT-4	-	EC50	MTT	IIIB	>100 µg/mL
Cc1cn([C@H]2C[C@H](N=[N+]=[N-])[C@@H](CO)O2)c(=O)[nH]c1=O	RT-P236L	Macrophage + Monocytes/macrophages	-	EC50	p24	BaL	0.18 µM
Cc1cn([C@H]2C[C@H](N=[N+]=[N-])[C@@H](CO)O2)c(=O)[nH]c1=O	Y181C	MT-4	-	EC50	MTT	IIIB	0.008 µM
CCn1nc(Cc2ccc(C#N)cc2)cc1C1CCN(C[C@H]2CN([C@@H](C(=O)O)C(C)C)C[C@@H]2c2cccc(F)c2)CC1	-	HeLa	-	EC50	β-galactosidase	BaL	<0.0012 µM
O=C1Nc2ccc(Cl)cc2[C@@](C#Cc2ccccn2)(C2CC2)N1	-	MT-4	-	EC50	-	IIIB	<0.025 µM
O=S1(=O)N=C(Nc2ccc(F)cc2)C=C(Cc2ccccc2)N1	-	MT-4	-	EC50	MTT	IIIB	>255 µM
Cc1c(O)cccc1C(=O)N[C@@H](CSc1ccccc1)[C@H](O)CN1C[C@H]2CCCC[C@H]2C[C@H]1C(=O)NC(C)(C)C	-	MT-4	-	EC50	cytopathic effect / MTT	NL4-3 B	0.062 µM
COc1cc(O)c(-c2coc3cc(O)ccc3c2=O)c(OC)c1CC=C(C)C	-	MT-4	-	EC50	MTT	IIIB	>100 µg/mL
Cc1cn([C@H]2CC[C@@H](CO)O2)c(=O)[nH]c1=O	-	HT4 + HT4-6C	-	EC50	plaque count	AZT-resistant A012C Clinical isolate	185 µM
Nc1ccn([C@H]2CC[C@@H](CO)O2)c(=O)n1	RT-A62V S68G T69D V75I F77L F116Y Q151M	MT-4	-	EC50	cytopathic effect	BI-12.96 (HXB2(RT-A62V S68G T69D V75I F77L F116Y Q151M))	>20 µM
COc1c2c(cc3oc(=O)c4c5ccc(O)cc5oc4c13)OC(C)(C)CC2	-	MT-4	-	EC50	cytopathic effect / MTT	IIIB	>100 µg/mL
Cc1cn([C@H]2C[C@H](N=[N+]=[N-])[C@@H](COP(=O)(OCCC#N)OC[C@@H]3CC[C@H](n4cnc5c(N)ncnc54)O3)O2)c(=O)[nH]c1=O	-	PBMC	-	EC50	RT activity	LAV	0.00015 µM
Cc1cn([C@H]2C[C@H](N=[N+]=[N-])[C@@H](CO)O2)c(=O)[nH]c1=O	-	HT4 + HT4-6C	-	EC50	plaque count	A012B Clinical isolate	0.01 µM
O=C1Nc2ccc(Cl)cc2C(C#Cc2nccs2)(C2CC2)N1	-	MT-4	-	EC50	-	IIIB	<0.012 µM
Cc1cn([C@H]2C[C@H](N=[N+]=[N-])[C@@H](COP(=O)(O)OC[C@@H]3CC[C@H](n4cnc5c(=O)[nH]cnc54)O3)O2)c(=O)[nH]c1=O	-	PBMC	-	EC90	RT activity	LAV	0.002–0.0037 µM
Nc1ncnc2c1ncn2CCOCP(=O)(O)O	-	H9	-	EC50	p24	HXB2D	1.2 µM
CC(C)=CCN1Cc2cc(Cl)cc3[nH]c(=S)n(c23)C[C@@H]1C	RT-K70R Y181C	MT-4	-	EC95	-	-	>3 µM
C#Cc1ccc(Nc2nccc(Oc3c(C)cc(-c4cn(Cc5ccc(C#N)cc5)nn4)cc3C)n2)cc1	F227L and V106A	MT-4	-	EC50	MTT	IIIB	>7.18 µM
CCC[C@@]1(CCc2ccccc2)CC(O)=C([C@H](CC)c2cccc(NS(=O)(=O)c3ccc(C(F)(F)F)cn3)c2)C(=O)O1	PR-L10L/I K20R M36I I54V A71I/V V82A I84I/V L90M	PBMC	-	EC50	p24	Clinical isolate	0.268 µM
CC(C)(C)NC(=O)[C@@H]1C[C@@H]2CCCC[C@@H]2CN1C[C@@H](O)[C@H](Cc1ccccc1)NC(=O)[C@H](CC(N)=O)NC(=O)c1ccc2ccccc2n1	-	MT-4	-	EC50	cytopathic effect / MTT	NL4-3 PR-S12T I15V I19L M36I R41K H69K L89M I93L CLONE 6( C )	0.0026 µM
CC(=O)Oc1ccc(/C=C/C(=O)O[C@H](C(=O)O)[C@H](OC(=O)/C=C/c2ccc(OC(C)=O)c(OC(C)=O)c2)C(=O)O)cc1OC(C)=O	AMD3100-resistant	MT-4	-	EC50	cytopathic effect / MTT	NL4-3	>93 µM
CCn1nc(Cc2ccc(O)cc2)cc1C1CCN(C[C@H]2CN([C@@H](C(=O)O)C(C)(C)C)C[C@@H]2c2cccc(F)c2)CC1	-	HeLa	-	EC50	β-galactosidase	BaL	<0.0004 µM
CC(C)=CCc1cc(C2CC(=O)c3c(cc(O)c(CC=C(C)C)c3O)O2)ccc1O	-	MT-4	-	EC50	MTT	IIIB	>25 µg/mL
CC[C@H](C)[C@H](C(=O)O)N1C[C@H](CN2CCC(c3cc(Cc4ccc(OC)c(C#N)c4)nn3CC)CC2)[C@@H](c2cccc(F)c2)C1	-	HeLa	50% human serum	EC90	β-galactosidase	BaL	0.033 µM
CC1(C)C=Cc2c(ccc(C3COc4cc(O)cc(O)c4C3=O)c2O)O1	-	MT-4	-	EC50	MTT	IIIB	>100 µg/mL
CC(=O)O[C@@]12C[C@@H](C)[C@@]3(O)[C@@H](C=C(CO)C[C@]4(O)C(=O)C(C)=C[C@@H]34)[C@@H]1C2(C)C	-	C8166	-	EC50	p24 / ELISA	IIIB	3.701 µM
Nc1ccn([C@H]2CC[C@@H](CO)O2)c(=O)n1	-	H9	-	EC50	p24	LAI	0.038 µM
COc1ccc(CN[C@@H](C(=O)N[C@H]2c3ccccc3C[C@H]2O)[C@H](O)[C@H](Cc2ccccc2)NC(=O)[C@@H](NC(=O)OCc2ccccc2)C(C)(C)C)cc1	-	Primary T4 cells + T4	-	EC50	p24	K31	0.15 µM
C#Cc1ccc(Nc2nccc(Oc3c(C)cc(-c4cn(Cc5ccccc5)nn4)cc3C)n2)cc1	F227L and V106A	MT-4	-	EC50	MTT	IIIB	>8.55 µM
CCCCN1C(=O)C(CC2CCCCC2)NC(=O)C12CCN(Cc1ccc3c(c1)OCCO3)CC2	-	PBMC	-	EC50	p24	BaL	0.07 µM
Cc1cn([C@H]2C=C[C@@H](CO)O2)c(=O)[nH]c1=O	RT-F77L F116Y Q151M	MT-4	-	EC50	cytopathic effect	FO-08.96 (HXB2 RT F77L F116Y Q151M)	>10 µM
CCn1nc(Cc2ccccc2F)cc1C1CCN(C[C@H]2CN([C@@H](C(=O)O)C(C)C)C[C@@H]2c2cccc(F)c2)CC1	-	HeLa	-	EC90	β-galactosidase	BaL	0.011 µM
C#Cc1ccc(Nc2nccc(Oc3c(C)cc(-c4cn(Cc5cccc(C(=O)OC)c5)nn4)cc3C)n2)cc1	F227L and V106A	MT-4	-	EC50	MTT	IIIB	≥2.267 µM
CC[C@H](C)[C@H](C(=O)O)N1C[C@H](CN2CCC(c3cc(Cc4ccc(OCC(F)(F)F)cc4)nn3CC)CC2)[C@@H](c2cccc(F)c2)C1	-	HeLa	-	EC50	β-galactosidase	BaL	<0.0004 µM
CC(C)Nc1cccnc1N1CCN(C(=O)c2cc3cc(NS(C)(=O)=O)ccc3[nH]2)CC1	RT-F77L F116Y Q151M	MT-4	-	EC50	cytopathic effect	FO-08.96 (HXB2 RT F77L F116Y Q151M)	0.06 µM
CCN(C)C1=NS(=O)(=O)NC(Cc2ccc3ccccc3c2)=C1	-	MT-4	-	EC50	MTT	IIIB	>195 µM
CC[C@H](C)[C@H](C(=O)O)N1C[C@H](CN2CCC(c3cc(Cc4ccc(OC)c(OC)c4)nn3CC)CC2)[C@@H](c2cccc(F)c2)C1	-	HeLa	-	EC50	β-galactosidase	BaL	<0.0004 µM
CCCCCCCCCCCCSCC(COP(=O)([O-])OCC[N+](C)(C)C)OCCCCCCCCO	-	CEM + CEM-SS	-	EC50	plaque count	R5X4 WT	0.16 µM
O=c1c(O)c(-c2ccc(O)c(O)c2)oc2cc(O)ccc12	-	MT-4	-	EC50	MTT	IIIB	>12.5 µg/mL
CC(C)Nc1cccnc1N1CCN(C(=O)c2cc3cc(NS(C)(=O)=O)ccc3[nH]2)CC1	-	PBMC	-	EC50	p24	BaL	0.03 µM
CCn1nc(Cc2ccc(OC(F)F)cc2)cc1C1CCN(C[C@H]2CN([C@@H](C(=O)O)C(C)(C)C)C[C@@H]2c2cccc(F)c2)CC1	-	HeLa	-	EC90	β-galactosidase	BaL	<0.00014 µM
C#Cc1ccc(Nc2nccc(Oc3c(C)cc(-c4cn(-c5ccc(C(=O)OC)cc5)nn4)cc3C)n2)cc1	-	MT-4	-	EC50	MTT	IIIB	0.013 µM
Cc1ccnc2c1NC(=O)c1cccnc1N2C1CC1	-	CEM + CEM-SS	-	EC50	plaque count	IIIB WT	0.24 µM
CCOC(=O)c1oc2cc(O)cc(O)c2c(=O)c1Oc1ccc(OC)cc1OC	-	MT-4	-	EC50	cytopathic effect / MTT	IIIB	>25 µg/mL
C#Cc1ccc(Nc2nccc(Oc3c(C)cc(-c4cn(CCc5ccccc5)nn4)cc3C)n2)cc1	E138K	MT-4	-	EC50	MTT	IIIB	≥2.05 µM
Nc1ccn([C@H]2CC[C@@H](CO)O2)c(=O)n1	RT-P294S	MT-4	-	EC50	RT activity	HXB2-D294 (RT-P294S)	0.46 µM
O=S1(=O)N=C(Nc2ccccc2Cl)C=C(Cc2cccc3ccccc23)N1	-	MT-4	-	EC50	MTT	IIIB	>154 µM
CCn1nc(Cc2ccc3ccccc3c2)cc1C1CCN(C[C@H]2CN([C@@H](C(=O)O)C(C)(C)C)C[C@@H]2c2cccc(F)c2)CC1	-	HeLa	50% human serum	EC50	β-galactosidase	BaL	<0.1 µM

For reference, 8 entries again:

structure,mutations,cell line,setting,measure,read by,strain,value
CC(C)=CCN1Cc2cccc3[nH]c(=S)n(c23)C[C@@H]1C,-,MT-4,-,EC50,-,IIIB,<0.2 µM
COc1c(CC=C(C)C)c(O)cc2c1C[C@H](c1ccc(O)cc1O)CO2,-,MT-4,-,EC50,MTT,IIIB,>100 µg/mL
C#Cc1ccc(Nc2nccc(Oc3c(C)cc(-c4cn(Cc5ccc(C#N)cc5)nn4)cc3C)n2)cc1,F227L and V106A,MT-4,-,EC50,MTT,IIIB,>7.18 µM
Cc1cn([C@H]2C[C@H](N=[N+]=[N-])[C@@H](CO)O2)c(=O)[nH]c1=O,Y181C,MT-4,-,EC50,MTT,IIIB,0.008 µM
CC(C)=CCN1Cc2cc(Cl)cc3[nH]c(=S)n(c23)C[C@@H]1C,RT-K70R Y181C,MT-4,-,EC95,-,-,>3 µM
CC[C@H](C)[C@H](C(=O)O)N1C[C@H](CN2CCC(c3cc(Cc4ccc(OC)c(C#N)c4)nn3CC)CC2)[C@@H](c2cccc(F)c2)C1,-,HeLa,50% human serum,EC90,β-galactosidase,BaL,0.033 µM
CCC[C@@]1(CCc2ccccc2)CC(O)=C([C@H](CC)c2cccc(NS(=O)(=O)c3ccc(C(F)(F)F)cn3)c2)C(=O)O1,PR-L10L/I K20R M36I I54V A71I/V V82A I84I/V L90M,PBMC,-,EC50,p24,Clinical isolate,0.268 µM
C#Cc1ccc(Nc2nccc(Oc3c(C)cc(-c4cn(CCC(=O)OC)nn4)cc3C)n2)cc1,E138K,MT-4,-,EC50,MTT,IIIB,1.03 µM